Paper PMC12566046, “Arylpiperazinyl-Benzocycloheptapyrrole-Carboxamides Endowed with Dual Anticancer and Antiviral Activities” (Molecules, 2025)

Assays:
[1] = system: ZIKV, strain Brazil/2016/INMI1; assay: ZIKV viral yield reduction assay on Huh-7 cells; format: cell-based, Zika virus; conditions: preliminary screening
Method: We developed a protocol to screen the potential antiviral activity of compounds 1–20 against ZIKV (strain Brazil) on Huh-7 cells, against an H1N1 IAV strain (PR/8/1934) on MDCK cells, and against SARS-CoV-2 (strain Milano) on Vero-TMPRSS. Each compound was tested in duplicate at concentrations of 50 μM, 5 μM, and 0.5 μM. Treatment was applied immediately after infection, and at 24–48 h post-infection, supernatants were collected to assess viral yield, determined as PFU/mL for ZIKV and SARS-CoV-2 or as TCID50/mL for IAV. The test allowed us to evaluate both the antiviral action and the cytotoxicity of each compound, comparing them with reference compounds, such as sofosbuvir for ZIKV and EIDD-1931 for IAV and SARS-CoV-2 (Supplementary Materials, Figures S87–S89).
Viral yield reduction assays for ZIKV and SARS-CoV-2 were performed as previously described by Plicanti. Briefly, 1 × 10^4 Huh-7 cells/well and 1.2 × 10^4 VERO TMPRSS cells/well were infected with ZIKV (MOI 1) or SARS-CoV-2 (MOI 0.05) in a primary 96-well plate for 2 h at 37 °C, 5% CO2. […] Supernatants were collected after 48 h (Huh-7) or 24 h (VERO TMPRSS), diluted 3-fold, and added onto VERO E6 or VERO TMPRSS monolayers, respectively. After 2 h at 37 °C, the inoculum was replaced with 0.75% carboxymethyl cellulose (Merck®, Darmstadt, Germany) in DMEM 2% FBS. After 48–72 h, cells were then fixed with 4% buffered formalin solution (Merck®, Darmstadt, Germany) and stained with 1% crystal violet (Merck®, Darmstadt, Germany). Titres and percentage of inhibition were calculated as follows:
PFU/mL = number of plaques*3^n/vol infection, where n is the dilution where plaques were counted:% inhibition = 100 × (1 − Titre-compound/Titre-untreated control) where Titre-compound and Titre-untreated control are the titres (PFU/mL) obtained on cells treated with compound or DMSO, respectively.
SI was obtained by dividing CC50 by EC50 for each drug/virus/cell line. Compounds with SI values ≥ 10 were active in vitro.

[2] = system: SARS-CoV-2 VR PV10734 (strain Milano); format: cell-based; conditions: for SARS‐CoV‐2/Vero TMPRSS SI: preliminary screening

What does the source list for `CCN1CCC[C@H]1CNC(=O)c1[nH]c2c(c1Cl)CCCc1ccccc1-2` [Compound 1, (S)-3-Chloro-N-(1-ethyl-2-pyrrolidinylmethyl)-5,6-dihydro-4H-benzo[6,7]cyclohepta[1,2-b]pyrrol-2-carboxamide]?
ZIKV/Huh‐7 SI [1]: 1.87; SARS‐CoV‐2/Vero TMPRSS SI [2]: 1.54

Which “ZIKV/Huh‐7 SI” value [1] does the source give for `O=C(NCCN1CCN(c2ccccc2)CC1)c1[nH]c2c(c1Cl)CCCc1ccccc1-2` [Compound 2, 3-Chloro-N-(2-(4-phenylpiperazin-1-yl)ethyl)-1,4,5,6-tetrahydrobenzo[6,7]cyclohepta[1,2-b]pyrrole-2-carboxamide] here?
Its value is < 1.14.

Which “ZIKV/Huh‐7 SI” value [1] does the source give for `O=C(NCCN1CCN(c2ccc(Cl)cc2)CC1)c1[nH]c2c(c1Cl)CCCc1ccccc1-2` [Compound 3] here?
The value was 19.31.

How did the “ZIKV/Huh‐7 SI” value [1] turn out when `O=C(NCCN1CCN(c2ccccc2Cl)CC1)c1[nH]c2c(c1Cl)CCCc1ccccc1-2` [Compound 4] was run?
The value was 13.63.

What about the “SARS‐CoV‐2/Vero TMPRSS SI” value [2] of the same molecule?
The value was 1.36.

How did the “ZIKV/Huh‐7 SI” value [1] turn out when `COc1ccccc1N1CCN(CCNC(=O)c2[nH]c3c(c2Cl)CCCc2ccccc2-3)CC1` [Compound 5] was run?
Its value is 6.37.

And the “SARS‐CoV‐2/Vero TMPRSS SI” value [2]?
Its value is 0.84.

With `COc1cccc(N2CCN(CCNC(=O)c3[nH]c4c(c3Cl)CCCc3ccccc3-4)CC2)c1` [Compound 6] as the molecule, how does the “ZIKV/Huh‐7 SI” value [1] read?
The value was 16.49.

For `CCOc1ccccc1N1CCN(CCNC(=O)c2[nH]c3c(c2Cl)CCCc2ccccc2-3)CC1` [Compound 7], which “ZIKV/Huh‐7 SI” value [1] is on record?
Its value is 13.29.

What about the “SARS‐CoV‐2/Vero TMPRSS SI” value [2] of the same molecule?
The value was 1.03.

With `N#Cc1ccccc1N1CCN(CCNC(=O)c2[nH]c3c(c2Cl)CCCc2ccccc2-3)CC1` [Compound 8, 3-Chloro-N-(2-(4-(2-cyanophenyl)piperazin-1-yl)ethyl)-1,4,5,6-tetrahydrobenzo[6,7]cyclohepta[1,2-b]pyrrole-2-carboxamide] as the molecule, how does the “ZIKV/Huh‐7 SI” value [1] read?
The value was 17.62.

And the “SARS‐CoV‐2/Vero TMPRSS SI” value [2]?
The value was 1.16.

Which “ZIKV/Huh‐7 SI” value [1] does the source give for `O=C(NCCN1CCN(c2ccc(Cl)c(Cl)c2)CC1)c1[nH]c2c(c1Cl)CCCc1ccccc1-2` [Compound 9] here?
Its value is 20.19.

`O=C(NCCCN1CCN(c2ccccc2)CC1)c1cc2c([nH]1)-c1ccccc1CCC2` [Compound 10, N-(3-(4-Phenylpiperazin-1-yl)propyl)-1,4,5,6-tetrahydrobenzo[6,7]cyclohepta[1,2-b]pyrrole-2-carboxamide] was tested. Which “ZIKV/Huh‐7 SI” value [1] did it give?
The value was 3.46.

Which results are given for `O=C(NCCN1CCN(c2ccccc2)CC1)c1c(Cl)[nH]c2c1CCCc1ccccc1-2` [Compound 12, 2-Chloro-N-(2-(4-phenylpiperazin-1-yl)ethyl)-1,4,5,6-tetrahydrobenzo[6,7]cyclohepta[1,2-b]pyrrole-3-carboxamide]?
ZIKV/Huh‐7 SI [1]: 22.20; SARS‐CoV‐2/Vero TMPRSS SI [2]: 32.22

Which “ZIKV/Huh‐7 SI” value [1] does the source give for `O=C(NCCN1CCN(c2ccc(Cl)cc2)CC1)c1c(Cl)[nH]c2c1CCCc1ccccc1-2` [Compound 13] here?
The value was 44.58.

And the “SARS‐CoV‐2/Vero TMPRSS SI” value [2]?
The value was < 154.36.

`O=C(NCCN1CCN(c2ccccc2Cl)CC1)c1c(Cl)[nH]c2c1CCCc1ccccc1-2` [Compound 14] was tested. Which “ZIKV/Huh‐7 SI” value [1] did it give?
Its value is 6.37.

How did the “ZIKV/Huh‐7 SI” value [1] turn out when `COc1ccccc1N1CCN(CCNC(=O)c2c(Cl)[nH]c3c2CCCc2ccccc2-3)CC1` [Compound 15] was run?
The value was 1.99.

And the “SARS‐CoV‐2/Vero TMPRSS SI” value [2]?
Its value is 0.94.

`CCOc1ccccc1N1CCN(CCNC(=O)c2c(Cl)[nH]c3c2CCCc2ccccc2-3)CC1` [Compound 17] was tested. Which “ZIKV/Huh‐7 SI” value [1] did it give?
The value was 3.67.

How did the “ZIKV/Huh‐7 SI” value [1] turn out when `N#Cc1ccccc1N1CCN(CCNC(=O)c2c(Cl)[nH]c3c2CCCc2ccccc2-3)CC1` [Compound 18, 2-Chloro-N-(2-(4-(2-cyanophenyl)piperazin-1-yl)ethyl)-1,4,5,6-tetrahydrobenzo[6,7]cyclohepta[1,2-b]pyrrole-3-carboxamide] was run?
Its value is 3.77.

With `O=C(NCCN1CCN(c2ccc(Cl)c(Cl)c2)CC1)c1c(Cl)[nH]c2c1CCCc1ccccc1-2` [Compound 19] as the molecule, how does the “ZIKV/Huh‐7 SI” value [1] read?
Its value is 2.95.

Which results are given for `O=C(NCCCN1CCN(Cc2ccccc2)CC1)c1c(Cl)[nH]c2c1CCCc1ccccc1-2` [Compound 20, N-(3-(4-Benzylpiperazin-1-yl)propyl)-2-chloro-1,4,5,6-tetrahydrobenzo[6,7]cyclohepta[1,2-b]pyrrole-3-carboxamide]?
ZIKV/Huh‐7 SI [1]: 1.32; SARS‐CoV‐2/Vero TMPRSS SI [2]: 0.87

Which results are given for `O=c1nc(NO)ccn1[C@@H]1O[C@H](CO)[C@@H](O)[C@H]1O` [EIDD-1931, reference compound]?
selectivity index (SI) ([2]; SARS-CoV-2, VERO TMPRSS cells, CC50/EC50): 443.60; SARS‐CoV‐2/Vero TMPRSS SI [2]: 121.64

With `CC(C)OC(=O)[C@H](C)N[P@](=O)(OC[C@H]1O[C@@H](n2ccc(=O)[nH]c2=O)[C@](C)(F)[C@@H]1O)Oc1ccccc1` [sofosbuvir, reference compound] as the molecule, how does the “ZIKV/Huh‐7 SI” value [1] read?
Its value is 144.98.

For “N-(3-(4-Benzylpiperazin-1-yl)propyl)-2-chloro-1,4,5,6-tetrahydrobenzo[6,7]cyclohepta[1,2-b]pyrrole-2-carboxamide [Compound 11]”, which “ZIKV/Huh‐7 SI” value [1] is on record?
The value was 1.40.
